According to ChEMBL document CHEMBL5149972, “Novel Antimalarial Tetrazoles and Amides Active against the Hemoglobin Degradation Pathway in Plasmodium falciparum” (J Med Chem, 2021):

System: Plasmodium falciparum
Test: Antiplasmodial activity against lab-derived KAF156 resistant Plasmodium falciparum Dd2-Pfcarl mutant infected in human RBC assessed as parasite growth inhibition incubated for 72 hrs by SYBR Green dye based fluorescence assay
Type: functional, organism-based
Details: Erythrocyte

## Cc1ccccc1-n1nnnc1C(c1cncnc1)N(Cc1cccc(C(F)(F)F)c1)C1CC1 (racemic)
  EC50: 2000 nM
